Results deposited as PubChem BioAssay AID504761 (Drosophila RNAi Screening Center, 2011).

- Purpose: 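Fly genes whose silencing reduces dengue virus type 2 infection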 (primary screen)
- System: D.Mel-2 cells from Drosophila
- Reagent: long dsRNA against Drosophila genes
- Conditions: infection with dengue virus type 2; dose and infection time not stated
- Measured: 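Per well on two replicate plates, imaging gave the percent of cells positive for viral envelope protein, ranked by infection, and a nuclear count of cells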
- Direction: infection score: higher = more virus-infected cells
- Rule for the call: 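Very low infection ranking in both replicate wells (chance probability at most 0.065), then a retest showing infection dropped 1.5-fold or more at p below 0.05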
- Meaning of the calls: active = confirmed: knock-down lowers infection; inactive = not picked or not confirmed
The screen tested about 22,000 reagents; this is an unselected part of those with a known target gene and a result. Of all reagents, 116 (0.52%) were called active. 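Calls depend on retest data that are not deposited; infection was ranked per plate without normalising between plates; the unit of the infection score is not given.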 Not all columns of the deposit are shown. Not given: the amount of reagent, the time to read-out.

gene knocked down	amplicon	infection score, replicate 1	infection score, replicate 2	Call
CG14095 (GeneID 40112)	DRSC10098	4.96	7.64	inactive
Ras64B (GeneID 38494)	DRSC08689	4.23	14.6	inactive
Ras64B (GeneID 38494)	DRSC26766	4.03	14.6	inactive
Dera (GeneID 36358)	DRSC07207	6.72	13.2	inactive
Dera (GeneID 36358)	DRSC21336	2.93	16.2	inactive
Dera (GeneID 36358)	DRSC26996	4.99	4.66	inactive
btd (GeneID 31912)	DRSC18747	9.76	6.2	inactive
btd (GeneID 31912)	DRSC29060	14.5	12.2	inactive
vn (GeneID 38657)	DRSC23221	3.26	18.8	inactive
vn (GeneID 38657)	DRSC26550	4.23	7.98	inactive
baz (GeneID 32703)	DRSC20309	2.03	4.85	inactive
baz (GeneID 32703)	DRSC25558	7.94	4.96	inactive
Myc (GeneID 31310)	DRSC23360	0.89	3.56	inactive
Gr22b (GeneID 117492)	DRSC20911	1.19		inactive
LRR (GeneID 35715)	DRSC06444	1.6	9.58	inactive
LRR (GeneID 35715)	DRSC24790	5.86	11.1	inactive
CG8173 (GeneID 32753)	DRSC20088	1.86	13.5	inactive
NC2beta (GeneID 34875)	DRSC01895	13.6	5.74	inactive
NC2beta (GeneID 34875)	DRSC25346	1.58	1.78	inactive
CR33318 (GeneID 3771976)	DRSC22949	5.05	11.2	inactive
Mal-A8 (GeneID 35830)	DRSC07234	5.8	12.6	inactive
Gapdh2 (GeneID 32545)	DRSC20246	5.67	4.95	inactive
Gapdh2 (GeneID 32545)	DRSC24596	6.5	1.39	inactive
Tab2 (GeneID 37216)	DRSC07481	1.02	0.75	inactive
dap (GeneID 36001)	DRSC07601	17.2	13.8	inactive
CG5556 (GeneID 33320)	DRSC00687	0.97	7.5	inactive
CG32087 (GeneID 39323)	DRSC10806	1.92	3.74	inactive
CG32087 (GeneID 39323)	DRSC24793	4.12	4.89	inactive
wuho (GeneID 31566)	DRSC18101	1.4	2.23	inactive
wuho (GeneID 31566)	DRSC27950	23.9	2.32	inactive
Calx (GeneID 42481)	DRSC13457	7.58	2.93	inactive
Calx (GeneID 42481)	DRSC13459	2.75	2.53	inactive
Calx (GeneID 42481)	DRSC16599	1.71	1.78	inactive
Calx (GeneID 42481)	DRSC21850	1.68	11.3	inactive
Calx (GeneID 42481)	DRSC24386	2.73	3.57	inactive
Blos2 (GeneID 39234)	DRSC10147	2.33	2.36	inactive
Blos2 (GeneID 39234)	DRSC25642	1.04	4.87	inactive
CG11374 (GeneID 33163)	DRSC00306	3.24	3.57	inactive
Tg (GeneID 34093)	DRSC03047	4.2	6.44	inactive
Tg (GeneID 34093)	DRSC29048	19.6	13.1	inactive

No new results follow: 5 of the entries above.
gene knocked down	amplicon	infection score, replicate 1	infection score, replicate 2	Call
wuho (GeneID 31566)	DRSC27950	23.9	2.32	inactive
Calx (GeneID 42481)	DRSC13457	7.58	2.93	inactive
Calx (GeneID 42481)	DRSC13459	2.75	2.53	inactive
Calx (GeneID 42481)	DRSC16599	1.71	1.78	inactive
Calx (GeneID 42481)	DRSC21850	1.68	11.3	inactive
